According to article PMC7534258, “Novel temporin L antimicrobial peptides: promoting self-assembling by lipidic tags to tackle superbugs” (Journal of Enzyme Inhibition and Medicinal Chemistry, 2020):

Assays:
CD spectroscopy in SUVs [1] = conditions: 8 µM peptide, SUVs DOPG/CL, phosphate buffer 5 mM
CD spectroscopy in SUVs [2] = conditions: 8 µM peptide, SUVs DOPG/DOPE/CL, phosphate buffer 5 mM
[3] = Membrane fluidity, Laurdan generalised polarisation; conditions: Gram negative mimicking membranes, 25 °C
[4] = Thioflavin T peptide aggregation in LUVs; conditions: peptide 5–50 µM

## CCCCC(=O)Nc1ccc(C[C@H](N)C(=O)N[C@H](C(=O)N2CCC[C@H]2C(=O)N[C@@H](Cc2c[nH]c3ccccc23)C(=O)N[C@@H](Cc2ccccc2)C(=O)N[C@@H](CO)C(=O)N[C@@H](CCCCN)C(=O)N[C@@H](Cc2ccccc2)C(=O)N[C@H](CC(C)C)C(=O)N[C@H](CCCCN)C(=O)N[C@@H](CCCNC(=N)N)C(=O)N[C@H](C(=O)N[C@@H](CC(C)C)C(N)=O)[C@@H](C)CC)C(C)C)cc1 [C, H-Phe(4-NHCO(CH2)3CH3)-Val-Pro-Trp-Phe-Ser-Lys-Phe-DLeu-DLys-Arg-Ile- Leu-NH2] (H-[Phe(4-NH2)](Pentanoyl)VPWFSKF[dL][dK]RIL-NH2)
CD spectroscopy in SUVs [1]
  θ222/θ208 Gram-positive mimicking membranes: 1.2
CD spectroscopy in SUVs [2]
  θ222/θ208 Gram-negative mimicking membranes: 1.2
[3]
  generalised polarisation (GP) LUVs + 5 µM Compound: 0.07
  generalised polarisation (GP) LUVs + 30 µM Compound: 0.15
[4]
  ThT aggregation in membrane (in words): drastic increase of fluorescence

Where a SMILES comes first, the peptide text is derived from it. [ ]: non-standard residue; d: D form. The star is where a group is joined. Phe(4-NH2) = Nc1ccc(C[C@H](N)C(=O)O)cc1; Pentanoyl = CCCCC(=O)*
